Measured values from several laboratories, pooled; numbers as filed in NIAID ChemDB.

All rows: tests on isolated targets; agent: HIV-1; target: Protease

Two numbers with a dash give a range or band. ICn: concentration for n% inhibition. Conditions beyond the fields shown may differ between rows.

{"structure": "COc1cccc(CO[C@@H]2[C@H](O)[C@@H](O)[C@@H](OCc3cccc(OC)c3)[C@@H](Cc3ccccc3)S(=O)(=O)[C@@H]2Cc2ccccc2)c1", "measure": "IC50", "read by": "fluorescence", "value": "<2 µM"}
{"structure": "CNC(=O)[C@@H](NC(=O)[C@H](OCc1ccccc1)[C@H](O)[C@H](O)[C@@H](OCc1ccccc1)C(=O)N[C@H](C(=O)NC)C(C)C)C(C)C", "measure": "Ki", "value": "0.00128 µM"}
{"structure": "CC[C@H](C)[C@H](NC(=O)[C@@H](Cc1ccccc1)C[C@H](O)[C@H](Cc1ccccc1)NC(=O)OC(C)(C)C)C(=O)N[C@@H](Cc1ccccc1)C(N)=O", "measure": "Ki", "read by": "absorbance", "value": "0.0007 µM"}
{"structure": "CC(=O)NC(C(=O)O)(C(=O)O)c1cc2ccccc2s1", "measure": "IC50", "read by": "substrate cleavage / HPLC", "value": ">50 µM"}
{"structure": "O[C@@H]1[C@@H](O)[C@@H](OCc2ccccc2)[C@@H](Cc2ccccc2)S[C@H](Cc2ccccc2)[C@@H]1OCc1ccccc1", "measure": "IC50", "read by": "fluorescence", "value": "2–10 µM"}
{"structure": "Nc1c(N=Nc2ccc(S(=O)(=O)CCOS(=O)(=O)O)cc2)c(S(=O)(=O)O)cc2cc(S(=O)(=O)O)c(N=Nc3ccc(S(=O)(=O)CCOS(=O)(=O)O)cc3)c(O)c12", "measure": "IC50", "read by": "HPLC", "value": "100 µM"}
{"structure": "CC(=O)c1cccc(CN2C(=O)N(Cc3cccc(C(C)=O)c3)[C@H](Cc3ccccc3)[C@H](O)[C@@H](O)[C@H]2Cc2ccccc2)c1", "measure": "Ki", "strain": "RF", "value": "0.00006 µM"}
{"structure": "CCCCCCCCCCCCCCCC(=O)N[C@H](C(=O)N[C@@H](CCC(=O)O)C(=O)N[C@@H](CC(C)C)C(=O)O)c1ccc(OC(=O)c2ccccc2)cc1", "measure": "IC50", "read by": "fluorescence", "value": "~0.1 µM"}
{"structure": "O=S(=O)(O)c1cc(N=Nc2ccc(O)cc2)ccc1/C=C/c1ccc(N=Nc2ccc(O)cc2)cc1S(=O)(=O)O", "measure": "IC50", "read by": "HPLC", "value": "29 µM"}
{"structure": "CC(C)(C)OC(=O)N[C@@H](Cc1ccccc1)[C@H](O)CN[C@@H](Cc1ccccc1)C(=O)N[C@@H](CCC(=O)O)C(=O)N[C@@H](Cc1ccccc1)C(N)=O", "measure": "Ki", "read by": "absorbance", "value": "0.0001 µM"}
{"structure": "CNC(=O)[C@@H](NC(=O)[C@H](OCc1ccc(F)cc1F)[C@H](O)[C@@H](O)[C@@H](OCc1ccc(F)cc1F)C(=O)N[C@H](C(=O)NC)C(C)C)C(C)C", "measure": "Ki", "value": "0.0012 µM"}
{"structure": "O=C1N(Cc2ccc(O)cc2)[C@H](Cc2ccccc2)[C@H](O)[C@@H](O)[C@@H](Cc2ccccc2)N1Cc1cccc(-c2ccn[nH]2)c1", "measure": "Ki", "strain": "RF", "value": "0.000021 µM"}
{"structure": "O=S1(=O)[C@H](Cc2ccccc2)[C@H](OCc2cccnc2)[C@H](O)[C@@H](O)[C@@H](OCc2cccnc2)[C@H]1Cc1ccccc1", "measure": "IC50", "read by": "fluorescence", "value": "<2 µM"}
{"structure": "CC[C@H](C)[C@H](NC(C)=O)C(=O)N[C@@H](CO)C(=O)N[C@H](C(=O)N[C@@H](CCC(=O)O)C(=O)N[C@@H](CC(C)C)C(=O)O)c1ccc(OC(=O)c2ccccc2)cc1", "measure": "Ki", "read by": "fluorescence", "value": "0.6 µM"}
{"structure": "Nc1c(N=Nc2cccc([N+](=O)[O-])c2)c(S(=O)(=O)O)cc2cc(S(=O)(=O)O)c(N=Nc3ccccc3)c(O)c12", "measure": "IC50", "read by": "HPLC", "value": "48 µM"}
{"structure": "CC(C)C[C@H](NC(=O)[C@H](CCC(=O)O)NC(=O)[C@H](Cc1ccc(O)cc1)NC(=O)[C@H](CO)NC(=O)[C@@H](N)Cc1ccccc1)C(=O)O", "measure": "Ki", "read by": "fluorescence", "value": "0.6 µM"}
{"structure": "O=C(O)c1cc2ccccc2c(N=Nc2c(O)cc(S(=O)(=O)O)c3ccccc23)c1O", "measure": "IC50", "read by": "HPLC", "value": "20 µM"}
{"structure": "CC(C)(C)OC(=O)N[C@@H](Cc1ccccc1)[C@H](O)C[C@@H](Cc1ccccc1)C(=O)N[C@@H](CCC(N)=O)C(=O)N[C@@H](Cc1ccccc1)C(N)=O", "measure": "Ki", "read by": "absorbance", "value": "0.028 µM"}
{"structure": "Cc1cc(NC(=O)Nc2ccc(N=Nc3cc(S(=O)(=O)O)c4cccc(S(=O)(=O)O)c4c3)c(C)c2)ccc1N=Nc1cc(S(=O)(=O)O)c2cccc(S(=O)(=O)O)c2c1", "measure": "IC50", "read by": "HPLC", "value": "20 µM"}
{"structure": "CC[C@H](C)[C@H](NC(=O)[C@H](Cc1ccccc1)NC[C@H](O)[C@H](Cc1ccccc1)NC(=O)OC(C)(C)C)C(=O)N[C@@H](Cc1ccccc1)C(N)=O", "measure": "Ki", "read by": "absorbance", "value": "0.15 µM"}
{"structure": "O=S1(=O)N(Cc2ccc(-c3cccs3)cc2)[C@H](COc2ccccc2)[C@H](O)[C@@H](O)[C@@H](COc2ccccc2)N1Cc1ccc(-c2cccs2)cc1", "measure": "Ki", "changes": "PR-G48V L90M", "value": "18 µM"}
{"structure": "Cc1cc(-c2ccc(N=Nc3ccc4c(S(=O)(=O)O)cc(S(=O)(=O)O)c(N)c4c3O)c(C)c2)ccc1N=Nc1ccc2c(S(=O)(=O)O)cc(S(=O)(=O)O)c(N)c2c1O", "measure": "IC50", "read by": "HPLC", "value": "0.48 µM"}
{"structure": "O=S1(=O)[C@@H](Cc2ccccc2)[C@@H](OCc2ccccc2)[C@@H](O)[C@H](O)[C@H](OCc2ccccc2)[C@@H]1Cc1ccccc1", "measure": "IC50", "read by": "fluorescence", "value": "10–50 µM"}
{"structure": "CC(C)[C@H](NC(=O)N(C)Cc1ccccn1)C(=O)N[C@@H](Cc1ccccc1)[C@H](O)[C@H](O)[C@H](Cc1ccccc1)NC(=O)[C@@H](NC(=O)N(C)Cc1ccccn1)C(C)C", "measure": "Ki", "changes": "PR-R8Q", "read by": "fluorescence", "value": "0.0027 µM"}
{"structure": "O=C1N[C@H](Cc2ccccc2)[C@H](O)[C@@H](O)[C@@H](Cc2ccccc2)N1Cc1cccc(-c2ccn[nH]2)c1", "measure": "Ki", "strain": "RF", "value": "0.00026 µM"}
{"structure": "O=S1(=O)[C@H](Cc2ccccc2)[C@H](OCc2ccccc2)[C@H](O)[C@@H](O)[C@@H](OCc2ccccc2)[C@@H]1Cc1ccccc1", "measure": "IC50", "read by": "fluorescence", "value": "<2 µM"}
{"structure": "C/C(=N\\O)c1cccc(CN2C(=O)N(Cc3cccc(/C(C)=N/O)c3)[C@H](Cc3ccccc3)[C@H](O)[C@@H](O)[C@H]2Cc2ccccc2)c1", "measure": "Ki", "strain": "RF", "value": "0.000018 µM"}
{"structure": "CC(=O)N[C@@H](Cc1ccccc1)C(=O)N[C@@H](CO)C(=O)N[C@H](C(=O)N[C@@H](CCC(=O)O)C(=O)N[C@@H](CC(C)C)C(=O)O)c1ccc(OC(=O)c2ccccc2)cc1", "measure": "Ki", "read by": "fluorescence", "value": "0.4 µM"}
{"structure": "C/C(=N\\O)c1cccc(CN2[C@H](COc3ccccc3)[C@H](O)[C@@H](O)[C@@H](COc3ccccc3)N(Cc3cccc(/C(C)=N/O)c3)S2(=O)=O)c1", "measure": "Ki", "changes": "PR-I84V", "value": "0.78 µM"}
{"structure": "CCC(C)[C@H](NC(=O)CCCCCCCCCCCCCCC(=O)N[C@@H](CC(C)C)C(=O)N[C@@H](CC(N)=O)C(=O)N[C@@H](Cc1ccccc1)C(=O)O)C(=O)N[C@H](C(=O)N[C@@H](CC(C)C)C(=O)N[C@@H](Cc1c[nH]c2ccccc12)C(=O)O)C(C)O", "measure": "Ki", "read by": "fluorescence", "value": "0.87 µM"}
{"structure": "N#Cc1ccc(O[C@@H]2[C@H](O)[C@@H](O)[C@@H](Oc3ccc(C#N)cc3)CS(=O)(=O)[C@@H]2Cc2ccccc2)cc1", "measure": "IC50", "read by": "fluorescence", "value": "2–10 µM"}
{"structure": "CC(C)(C)OC(=O)N[C@@H](Cc1ccccc1)[C@H](O)CNC[C@@H](O)[C@H](Cc1ccc(OCC(=O)N2CCOCC2)cc1)NC(=O)OC(C)(C)C", "measure": "Ki", "read by": "substrate cleavage", "value": "0.034 µM"}
{"structure": "COC(=O)c1ccc(CN2[C@H](COc3ccccc3)[C@H](O)[C@@H](O)[C@@H](COc3ccccc3)N(Cc3ccc(C(=O)OC)cc3)S2(=O)=O)cc1", "measure": "Ki", "changes": "PR-I84V", "value": "1.5 µM"}
{"structure": "O=C(O)C(O)(c1ccccc1)C1(O)CCCCC1", "measure": "IC50", "read by": "substrate cleavage / HPLC", "value": ">50 µM"}
{"structure": "CC[C@H](C)[C@H](NC(C)=O)C(=O)N[C@@H](CO)C(=O)N[C@@H](Cc1ccc(O)cc1)C(=O)N[C@@H](CCC(=O)O)C(=O)N[C@H](C=O)CC(C)C", "measure": "Ki", "read by": "fluorescence", "value": "0.6 µM"}
{"structure": "O=C1NN=C(C(O)c2ccccc2)C1(O)c1ccccc1", "measure": "IC50", "read by": "substrate cleavage / HPLC", "value": ">50 µM"}
{"structure": "O=S1[C@H](Cc2ccccc2)[C@H](OCc2ccccc2)[C@H](O)[C@@H](O)[C@@H](OCc2ccccc2)[C@@H]1Cc1ccccc1", "measure": "IC50", "read by": "fluorescence", "value": "2–10 µM"}
{"structure": "CC(C)=CCC1=C(O)[C@@](O)(CC=C(C)C)C(=O)C(C(=O)CC(C)C)=C1O", "measure": "IC50", "read by": "substrate cleavage / HPLC", "value": ">50 µM"}
{"structure": "Cc1cnc(C(=O)N[C@H](C(=O)N[C@@H](Cc2ccccc2)[C@H](O)[C@H](O)[C@H](Cc2ccccc2)NC(=O)[C@@H](NC(=O)c2cnc(C)cn2)C(C)C)C(C)C)cn1", "measure": "Ki", "read by": "substrate cleavage", "value": "0.0007 µM"}
{"structure": "N#Cc1ccccc1O[C@@H]1[C@H](O)[C@@H](O)[C@@H](Oc2ccccc2C#N)CS(=O)[C@@H]1Cc1ccccc1", "measure": "IC50", "read by": "fluorescence", "value": "10–50 µM"}
{"structure": "CC(C)(C)OC(=O)N[C@@H](Cc1ccccc1)[C@H](O)[C@H](O)[C@H](Cc1ccccc1)NC(=O)OC(C)(C)C", "measure": "Ki", "changes": "PR-R8Q", "read by": "fluorescence", "value": "0.037 µM"}
{"structure": "CC(C)(C)C(=O)c1cccc(CN2C(=O)N(Cc3cccc(C(=O)C(C)(C)C)c3)[C@H](Cc3ccccc3)[C@H](O)[C@@H](O)[C@H]2Cc2ccccc2)c1", "measure": "Ki", "strain": "RF", "read by": "fluorescence", "value": "0.0036 µM"}
{"structure": "Nc1c(N=Nc2ccc(-c3ccc(N=Nc4cc(S(=O)(=O)O)c5ccccc5c4N)cc3)cc2)cc(S(=O)(=O)O)c2ccccc12", "measure": "IC50", "read by": "HPLC", "value": "0.78 µM"}
{"structure": "Cc1cccc(CO[C@@H]2[C@H](O)[C@@H](O)[C@@H](OCc3cccc(C)n3)[C@@H](Cc3ccccc3)S(=O)(=O)[C@@H]2Cc2ccccc2)n1", "measure": "IC50", "read by": "fluorescence", "value": "10–50 µM"}
{"structure": "CC(=O)N[C@@H](Cc1ccccc1)C(=O)N[C@@H](CO)C(=O)N[C@@H](Cc1ccc(O)cc1)C(=O)N[C@@H](CCC(=O)O)C(=O)N[C@@H](CC(C)C)C(=O)O", "measure": "Ki", "read by": "fluorescence", "value": "0.9 µM"}
{"structure": "O=S1(=O)N(Cc2cccc(I)c2)[C@H](COc2ccccc2)[C@H](O)[C@@H](O)[C@@H](COc2ccccc2)N1Cc1cccc(I)c1", "measure": "Ki", "changes": "PR-G48V L90M", "value": "0.079 µM"}
{"structure": "O=C1N(Cc2cccc(-c3cn[nH]n3)c2)[C@H](Cc2ccccc2)[C@H](O)[C@@H](O)[C@@H](Cc2ccccc2)N1Cc1cccc(-c2cn[nH]n2)c1", "measure": "Ki", "strain": "RF", "value": "0.00017 µM"}
{"structure": "O=C(O)c1ccccc1C(=O)CCC(=O)c1ccccc1C(=O)O", "measure": "IC50", "read by": "substrate cleavage / HPLC", "value": ">50 µM"}
{"structure": "CCC(=O)c1cccc(CN2C(=O)N(Cc3cccc(C(=O)CC)c3)[C@H](Cc3ccccc3)[C@H](O)[C@@H](O)[C@H]2Cc2ccccc2)c1", "measure": "Ki", "strain": "RF", "value": "0.00021 µM"}
{"structure": "CC(C)(C)OC(=O)N[C@@H](Cc1ccccc1)[C@H](O)CNC[C@@H](O)[C@H](Cc1ccc(OCC(=O)N2CCOCC2)cc1)NC(=O)OC(C)(C)C", "measure": "IC50", "read by": "HPLC", "value": "0.034 µM"}
{"structure": "CCN(Cc1cccc(S(=O)(=O)[O-])c1)c1ccc(C(=C2C=CC(=[N+](CC)Cc3cccc(S(=O)(=O)O)c3)C=C2)c2ccc(S(=O)(=O)O)cc2)cc1", "measure": "IC50", "read by": "HPLC", "value": "8 µM"}
{"structure": "CC(C)CN(C[C@@H](O)[C@H](Cc1ccccc1)NC(=O)[C@H](CC(N)=O)NC(=O)c1ccc2ccccc2n1)C(=O)NC(C)(C)C", "measure": "IC50", "changes": "PR-A71T", "read by": "HPLC", "value": "0.0022 µM"}
{"structure": "O=C1N(Cc2cccnc2)[C@H](Cc2ccccc2)[C@H](O)[C@@H](O)[C@@H](Cc2ccccc2)N1Cc1cccc(-c2ccn[nH]2)c1", "measure": "Ki", "strain": "RF", "value": "0.00017 µM"}

A second listing of 4 rows from above:

{"structure": "N#Cc1ccc(O[C@@H]2[C@H](O)[C@@H](O)[C@@H](Oc3ccc(C#N)cc3)CS(=O)(=O)[C@@H]2Cc2ccccc2)cc1", "measure": "IC50", "read by": "fluorescence", "value": "2–10 µM"}
{"structure": "Nc1c(N=Nc2ccc(S(=O)(=O)CCOS(=O)(=O)O)cc2)c(S(=O)(=O)O)cc2cc(S(=O)(=O)O)c(N=Nc3ccc(S(=O)(=O)CCOS(=O)(=O)O)cc3)c(O)c12", "measure": "IC50", "read by": "HPLC", "value": "100 µM"}
{"structure": "CC[C@H](C)[C@H](NC(C)=O)C(=O)N[C@@H](CO)C(=O)N[C@H](C(=O)N[C@@H](CCC(=O)O)C(=O)N[C@@H](CC(C)C)C(=O)O)c1ccc(OC(=O)c2ccccc2)cc1", "measure": "Ki", "read by": "fluorescence", "value": "0.6 µM"}
{"structure": "CNC(=O)[C@@H](NC(=O)[C@H](OCc1ccc(F)cc1F)[C@H](O)[C@@H](O)[C@@H](OCc1ccc(F)cc1F)C(=O)N[C@H](C(=O)NC)C(C)C)C(C)C", "measure": "Ki", "value": "0.0012 µM"}